Compound potency records, mixed from different reports. Data source: NIAID ChemDB in PubChem.

Common to all: whole-cell or culture tests; organism: HIV-1; measure: inhibition

Percent inhibition refers to the dose given; in toxicity tests it is the harm to the cells.

{"smiles": "O=C1CN=C(c2ccccc2)c2cc([N+](=O)[O-])ccc2N1", "cells": "MT-4", "tested at": "100 µg/mL", "strain or isolate": "LAV", "result": "99.6%"}
{"smiles": "O=C(Nc1cc(S(=O)(=O)O)cc2cc(S(=O)(=O)O)c(N=Nc3ccc(N=Nc4c(S(=O)(=O)O)cc5cc(S(=O)(=O)O)cc(NC(=O)c6cccc(Cl)c6Cl)c5c4O)cc3)c(O)c12)c1ccc(Cl)cc1Cl", "cells": "MONO/MACRO + Monocytes/macrophages", "tested at": "1.26 µg/mL", "strain or isolate": "SF162", "result": "90%"}
{"smiles": "COc1ccc(C(=O)N2CCN(c3ccc4c(c3)CCC(=O)N4)CC2)cc1OC", "cells": "Macrophage", "tested at": "100 µg/mL", "strain or isolate": "JR-FL", "result": "80%"}
{"smiles": "NC12CC3CC(CC(C3)C1)C2", "cells": "MT-4", "tested at": "10 µg/mL", "strain or isolate": "LAV", "result": "80%"}
{"smiles": "CC1(C)[C@@H](O[C@H]2O[C@H](C(=O)O)[C@@H](O)[C@H](O)[C@H]2O[C@@H]2O[C@H](C(=O)O)[C@@H](O)[C@H](O)[C@H]2O)CC[C@]2(C)[C@H]3C(=O)C=C4[C@@H]5C[C@@](C)(C(=O)O)CC[C@]5(C)CC[C@@]4(C)[C@]3(C)CC[C@@H]12", "cells": "MT-4", "tested at": "500 µg/mL", "result": "18.2%"}
{"smiles": "O=C(O)P(=O)(O)O", "conditions": "10 d", "cells": "PBL", "tested at": "128 µM", "strain or isolate": "IIIB", "result": "99%"}
{"smiles": "CC(C)Nc1cccnc1N1CCN(C(=O)c2cc3cc(N=CN(C)C)ccc3[nH]2)CC1", "cells": "MT-2", "tested at": "1 µM", "strain or isolate": "LAV", "result": "93%"}
{"smiles": "CC(C)(CO)[C@@H](O)C(=O)NCCCC(=O)O", "cells": "MT-4", "tested at": "1 µg/mL", "strain or isolate": "LAV", "result": "0%"}
{"smiles": "CC(C)C[C@@H]1[C@H](O)[C@@H](O)[C@@H](CC(C)C)N(Cc2cccc(C(=O)Nc3nc4ccccc4[nH]3)c2)C(=O)N1Cc1cccc(C(=O)Nc2nc3ccccc3[nH]2)c1", "conditions": "3 d", "cells": "MT-2", "tested at": "0.012 µM", "strain or isolate": "RF", "changes": "PR-I84V V82F", "result": "90%"}
{"smiles": "N[C@@H](CCC(=O)N[C@@H](CS)C(=O)NCC(=O)O)C(=O)O", "cells": "MT-4", "tested at": "100 µg/mL", "strain or isolate": "LAV", "result": "0%"}
{"smiles": "CCC(C)[C@H](NC(=O)[C@H](C(C)C)[C@@H](O)[C@H](O)[C@H](CC1CCCCC1)NC(=O)c1ccccc1SCCCCC[C@@H]1SC[C@@H]2NC(=O)NC21)C(=O)NCc1ccccn1", "cells": "PBMC", "tested at": "0.01 µM", "strain or isolate": "D34", "result": "10%"}
{"smiles": "CCC[C@@H](c1ccc(C(F)(F)F)cc1)N1CCN(C2(C)CCN(C(=O)c3c(C)ncnc3C)CC2)C[C@@H]1C", "cells": "PBMC", "tested at": "0.00027 µM", "strain or isolate": "JV1083 Clinical isolates", "result": "90%"}
{"smiles": "C[C@H]1CCC/C=C/[C@@H]2C[C@H](O)C[C@H]2[C@@H](O)/C=C/C(=O)O1", "cells": "MOLT-3", "tested at": "10 µg/mL", "strain or isolate": "IIIB", "result": "97%"}
{"smiles": "CCCC(=O)OC[C@@H](OC(=O)CCC)[C@@H](OC(=O)CCC)[C@H](Cn1c2nc(=O)[nH]c(=O)c-2nc2cc(C)c(C)cc21)OC(=O)CCC", "cells": "MT-4", "tested at": "100 µg/mL", "strain or isolate": "LAV", "result": "0%"}
{"smiles": "CCCC(=O)O[C@H]1CN2CC[C@H](O)[C@@H]2[C@@H](O)[C@@H]1O", "cells": "H9", "tested at": "4 µM", "strain or isolate": "RF", "result": "90%"}
{"smiles": "C=C(C)[C@]12C[C@@H](COC(=O)c3ccccc3)[C@@]34O[C@]5(O[C@@H]1[C@@H]3[C@@H]1O[C@]1(CO)[C@@H](O)[C@@]1(O)[C@H]4[C@H]([C@H](C)[C@@H]1OC(=O)c1ccccc1)[C@H](C)CCCCCC[C@H]5O)O2", "cells": "MT-4", "tested at": "0.001 µM", "result": "90%"}
{"smiles": "CC(=O)OC[C@@H]1C[C@H](N=[N+]=[N-])C[C@H](n2cc(C)c(=O)[nH]c2=O)O1", "cells": "MT-4", "tested at": "333 µM", "strain or isolate": "IIIB", "result": "0%"}

For reference, 2 entries again:

| smiles | conditions | cells | tested at | strain or isolate | changes | result |
|---|---|---|---|---|---|---|
| CCCC(=O)OC[C@@H](OC(=O)CCC)[C@@H](OC(=O)CCC)[C@H](Cn1c2nc(=O)[nH]c(=O)c-2nc2cc(C)c(C)cc21)OC(=O)CCC | - | MT-4 | 100 µg/mL | LAV | - | 0% |
| CCCC(=O)O[C@H]1CN2CC[C@H](O)[C@@H]2[C@@H](O)[C@@H]1O | - | H9 | 4 µM | RF | - | 90% |

Blank or dashed fields: not listed here. Rows are shuffled and stem from different studies.